The list shows a part of the results, in another mix than the full data. Inconclusive results are not listed. Activity calls are given as the source filed them. The call rests on the fitted dose curve; tested in A549 cells.
Potency means the concentration at half of the fitted maximal effect.

This assay is described as follows: qHTS for Stage-Specific Inhibitors of Vaccinia Orthopoxvirus: mCherry Reporter Primary qHTS. Further: nearly all actives have a fitted effect of over 35% in size. To be noted: Vaccinia virus mCherry reporter infection, fluorescence. A general note: In qHTS, concentration-response curves come from the screen itself.
On to `CC1CCOC(=O)C=CC=CC(=O)OC2CC3OC4C5OC5(C)C(O)CC4(COC(=O)C1O)C2(C)C31CO1` (configuration not stated), for which the Potency was active: 282 nM.
The result for `O=[N+]([O-])c1cc([N+](=O)[O-])c(-c2cnn(-c3ccccc3)c2)c([N+](=O)[O-])c1` reads active: 891 nM.

For the origin of these results see PubChem BioAssay AID720579 (National Center for Advancing Translational Sciences (NCATS), 2013).
